Results of unrelated studies side by side (data: NIAID ChemDB).

Shared fields: growth or infection tests; agent: Mycobacterium smegmatis; read-out: MIC

Blank or dashed fields: not listed here. a–b is a range or a potency band. Neighbouring rows are from separate reports.

SMILES	strain or isolate	mutations	read by	value
COc1c(N2CCNC(C)C2)c(F)cc2c(=O)c(C(=O)O)cn(C3CC3)c12	ATCC 14468 MC2	-	agar	2.08 µM
O=C(O)c1c2n(c3cc([N+](=O)[O-])c(N4CCN(C(=O)c5ccco5)CC4)cc3c1=O)CS2	ATCC 14468	-	agar	0.85 µM
CCCCCCc1[nH]c2ccccc2c1C1=C(Br)C(=O)NC1=O	SG987	-	-	0.14 µg/mL
CC[C@H](C)[C@@H](NC(=O)[C@@H](CCC(=O)O)NC(=O)[C@H](Cc1cnc[nH]1)NC(=O)[C@H](CC(C)C)NC(=O)[C@@H](C)N)C(=O)N[C@H]1CCCCNC1=O	-	-	-	>50 µg/mL
CCCCCCCCCCCCCCCCCCOC(=O)NC(C)(CCC(=O)O)CCC(=O)O	mc155	-	-	69 µg/mL
O=C(O)c1c2n(c3cc(F)c(N4CCC5(CC4)OCCO5)cc3c1=O)CS2	ATCC 14468	-	agar	63.71 µM
CN1C(=O)C(Br)=C(c2c(-c3ccccc3)[nH]c3ccccc23)C1=O	SG987	-	-	12.5 µg/mL
O=C(O)c1c2n(c3cc(N4CCN(C(c5ccccc5)c5ccc(Cl)cc5)CC4)c(F)cc3c1=O)CS2	ATCC 14468 MC2	-	agar	46.64 µM
Cc1ccccc1NC(=O)CCCCCc1[nH]c2ccccc2c1C1=C(Br)C(=O)NC1=O	SG987	-	-	12.5 µg/mL
C=C1C2CCC(CO)[C@@]23CC[C@H](C3)C1(C)C	LomR5	Lomefloxacin-resistant	agar diffusion	25 µg/mL
CCCCc1c(C2=C(Br)C(=O)NC2=O)c2ccccc2n1C	SG987	-	-	6.25 µg/mL
CNC1CCN(CCCCn2ccc(Nc3ccc(CNCCCN)cn3)nc2=O)CC1	-	-	turbidity	32–128 µg/mL
CCCCCCCCC(CCCCCCCC)NC(=O)NC(CCC(=O)O)(CCC(=O)O)CCC(=O)O	mc155	-	-	144 µg/mL
CCCCCOc1cc(-c2ccccc2F)nc2ccccc12	ATCC 607	-	-	125 µg/mL
O=C(O)c1c2n(c3cc(F)c(N4CCC(N5CCCCC5)CC4)cc3c1=O)CS2	ATCC 14468	-	agar	120 µM
CCc1cc(C(N)=S)ccn1	MC^2 144	-	-	10 µg/mL
O=C(Nc1cccc(Cn2ccnc2)c1)c1ccc(-c2ccccc2)cc1	103599	-	-	16 µg/mL
CCCCCCCCCCCC(CCCCCCCCCCC)OC(=O)NC(CCC(=O)O)(CCC(=O)O)CCC(=O)O	mc155	-	-	72 µg/mL
CCCCCCCCOc1cc(-c2ccc(F)cc2)nc2ccccc12	ATCC 607	-	-	250 µg/mL
CC(C)(C)NC(=O)C1c2ccccc2CCN1c1cc2c(cc1[N+](=O)[O-])c(=O)c(C(=O)O)c1n2CS1	ATCC 14468 MC2	-	agar	98.32 µM
CCCc1[nH]c2ccccc2c1C1=C(Br)C(=O)N(C)C1=O	SG987	-	-	25 µg/mL
CN1CCN(Cc2ccccc2NC(=O)c2ccc(Cl)cc2)CC1	103599	-	-	>16 µg/mL
CCCCCCCCCCOc1cc(-c2cccc(F)c2)nc2ccccc12	ATCC 607	-	-	125 µg/mL
CN1CCN(Cc2cccc(NC(=O)c3ccc(Cl)cc3)c2)CC1	103599	-	-	>16 µg/mL
CCCCCCCCCCCN(CCCCCCCCCCC)C(=O)NC(CCC(=O)O)(CCC(=O)O)CCC(=O)O	mc155	-	-	72 µg/mL
NC1CCN(CCCCn2ccc(Nc3cc(C(=O)N4CCNCC4)ccn3)nc2=O)CC1	-	-	turbidity	8–32 µg/mL
CC(C)(C)NC(=O)C1c2ccccc2CCN1c1cc2c(cc1F)c(=O)c(C(=O)O)c1n2CS1	ATCC 14468 MC2	-	agar	51.92 µM
NC1CCN(CCCCn2ccc(Nc3ccc(C4(O)CCNCC4)cn3)nc2=O)CC1	-	-	turbidity	<8 µg/mL
CCCCCCCCCCCCCCCCCCCCC(=O)NC(C)(CCC(=O)O)CCC(=O)O	mc155	-	-	14 µg/mL
CCCCCCOc1cc(-c2cccc(F)c2)nc2ccccc12	ATCC 607	-	-	125 µg/mL
O=C(Nc1ccccc1CN1CCOCC1)c1ccc(-c2ccccc2)cc1	103599	-	-	>16 µg/mL
O=C(O)c1c2n(c3cc([N+](=O)[O-])c(N4CCC(O)(c5ccc(Cl)cc5)CC4)cc3c1=O)CS2	ATCC 14468	-	agar	6.42 µM
CC1CN(c2cc3c(cc2F)c(=O)c(C(=O)O)c2n3CS2)CC(C)O1	ATCC 14468 MC2	-	agar	68.61 µM
COc1cc2c(cc1OC)CN(c1cc3c(=O)c(C(=O)O)c4n(c3cc1[N+](=O)[O-])CS4)CC2	ATCC 14468	-	agar	106.5 µM
NC1CCN(CCCCn2ccc(Nc3ccc(COC[C@@H]4CCCN4)cn3)nc2=O)CC1	-	-	turbidity	8–32 µg/mL
COc1ccc(CC2C3=C(CCCC3)CCN2c2cc3c(=O)c(C(=O)O)c4n(c3cc2[N+](=O)[O-])CS4)cc1	ATCC 14468	-	agar	11.71 µM
CCCCCCCCCCCCCCOc1cc(-c2cccc(F)c2)nc2ccccc12	ATCC 607	-	-	125 µg/mL
CCCCCCCCCCC(CCCCCCCCCC)OC(=O)NC(CCC(=O)O)(CCC(=O)O)CCC(=O)O	mc155	-	-	27 µg/mL
CC(C)(C)OC(=O)NC1C2CN(c3cc4c(=O)c(C(=O)O)c5n(c4cc3[N+](=O)[O-])CS5)CC21	ATCC 14468	-	agar	13.17 µM
COc1ccc(CC2C3=C(CCCC3)CCN2c2cc3c(cc2[N+](=O)[O-])c(=O)c(C(=O)O)c2n3CS2)cc1	ATCC 14468 MC2	-	agar	11.71 µM
CCCCCCCCCCCCCC(=O)NC(CCC(=O)O)(CCC(=O)O)CCC(=O)O	mc155	-	-	36 µg/mL

A second listing of 3 rows from above:

SMILES,strain or isolate,mutations,read by,value
CNC1CCN(CCCCn2ccc(Nc3ccc(CNCCCN)cn3)nc2=O)CC1,-,-,turbidity,32–128 µg/mL
CCCCCCc1[nH]c2ccccc2c1C1=C(Br)C(=O)NC1=O,SG987,-,-,0.14 µg/mL
CCCCCCCCCCC(CCCCCCCCCC)OC(=O)NC(CCC(=O)O)(CCC(=O)O)CCC(=O)O,mc155,-,-,27 µg/mL